Measured values from several laboratories, pooled; numbers as filed in NIAID ChemDB.

All rows: tests in culture; species: HIV-1; cell line: MT-4; measure: EC50

Neighbouring rows are from separate reports. An empty or dashed field is not shown. a–b is a range or a potency band. ECn is the concentration giving n% inhibition of infection, replication or growth.

{"structure": "CCn1cc(C(=O)O)c(=O)c2cc(F)c(N3CCN(CN4C(=O)/C(=N\\c5ncc(Cc6cc(OC)c(OC)c(OC)c6)c(N)n5)c5cc(F)ccc54)C(C)C3)c(F)c21", "strain or isolate": "IIIB", "method": "cytopathic effect / MTT", "value": "57.1 µg/mL"}
{"structure": "CO[C@@]12C[C@]3(C)CCC[C@H](C)[C@@]3(O)CC1=C(C)C(=O)O2", "strain or isolate": "IIIB", "method": "MTT", "value": "0.044 µg/mL"}
{"structure": "O=C(NC1CCCC1)c1ccc(C2=NN3C(C(=O)c4ccc(N5CCOCC5)cc4)Oc4ccccc4C3C2)cc1", "strain or isolate": "LAI", "method": "GFP / reporter gene", "value": "1–10 µM"}
{"structure": "CCc1nc([N+](=O)[O-])c(N2CCN(C(=O)CCc3c[nH]c4ccccc34)CC2)n1Cc1ccccc1", "strain or isolate": "IIIB", "method": "syncytia", "value": ">15.2 µg/mL"}
{"structure": "CCN1C[C@H](C)N2C(=C(O)C3C(=O)N4Cc5ccc(F)cc5OCCCCS(=O)(=O)N(C5CC5)C(=N4)C32)C1=O", "strain or isolate": "LAII(IIIB)", "value": "2.88 µM"}
{"structure": "CSC1=NC2(C[C@@H]2c2ccccc2)C(=O)N1C(C)=O", "strain or isolate": "IIIB", "method": "MTT", "value": "4.9 µg/mL"}
{"structure": "CCN(CC)CCNC(=O)c1ccc(C2=NN3C(C(=O)c4ccc(F)cc4)Oc4ccccc4C3C2)cc1", "strain or isolate": "LAI", "method": "GFP / reporter gene", "value": "1–10 µM"}
{"structure": "Cc1nc2c(ccn2Cc2cccc(F)c2F)c(-c2ccc3c(c2C)NCCO3)c1[C@H](OC(C)(C)C)C(=O)O", "method": "luciferase", "value": "0.14 µM"}
{"structure": "CCN1C[C@H](C)N2C(=C(O)C3C(=O)N4Cc5ccccc5OCCCCS(=O)(=O)N(C)C(=N4)C32)C1=O", "strain or isolate": "LAII(IIIB)", "value": "0.92 µM"}
{"structure": "C=Cn1cc(C(=O)O)c(=O)c2ccc(N3CCN(c4nc5ccccc5s4)CC3)cc21", "strain or isolate": "IIIB", "method": "MTT", "value": "0.005 µM"}
{"structure": "CC(C)CC(C)NC(=O)c1ccc(C2=NN3C(C(=O)c4ccc(F)cc4)Oc4ccccc4C3C2)cc1", "strain or isolate": "LAI", "method": "GFP / reporter gene", "value": "<1 µM"}
{"structure": "CCc1nc([N+](=O)[O-])c(N2CCN(C(=O)CS(=O)(=O)c3cccc4ccccc34)CC2)n1Cc1ccccc1", "strain or isolate": "IIIB", "method": "syncytia", "value": ">17.7 µg/mL"}
{"structure": "Nn1cc(C(=O)O)c(=O)c2ccc(N3CCN(c4nc5ccccc5s4)CC3)cc21", "strain or isolate": "IIIB", "method": "MTT", "value": "2.3 µM"}
{"structure": "CCc1nc([N+](=O)[O-])c(N2CCN(C(=O)CCC(=O)OC)CC2)n1Cc1ccccc1", "strain or isolate": "IIIB", "method": "syncytia", "value": ">29.8 µg/mL"}
{"structure": "COc1cc(Cc2cnc(/N=C3\\C(=O)N(CN4CCN(c5cccc(Cl)c5)CC4)c4ccc(F)cc43)nc2N)cc(OC)c1OC", "strain or isolate": "IIIB", "method": "cytopathic effect / MTT", "value": ">121.6 µg/mL"}
{"structure": "C=Cn1cc(C(=O)O)c(=O)c2ccc(N3CCN(c4cccc(C(F)(F)F)c4)CC3)cc21", "strain or isolate": "IIIB", "method": "MTT", "value": "0.19 µM"}
{"structure": "N[C@@H](CCCCNC1c2ccc3cc4c5c6c(cc7ccc8cc9cc1c1c9c9c8c7c6c9c6c1c2c3c56)C4)C(=O)O", "method": "p24", "value": "90 µM"}
{"structure": "Nc1cc2c(=O)c(C(=O)O)cn(N)c2cc1N1CCN(c2ccccn2)CC1", "strain or isolate": "IIIB", "method": "MTT", "value": "2.23 µM"}
{"structure": "CCOC(=O)c1ccc(N2C(=O)C=CC3C2c2ccccc2N3C)cc1", "strain or isolate": "LAI", "method": "cytopathic effect / MTT", "value": ">32 µM"}
{"structure": "Nc1nccc2nnn([C@@H]3O[C@H](CO)[C@@H](O)[C@H]3O)c12", "method": "cytopathic effect", "value": ">398 µM"}
{"structure": "COc1cc(Cc2cnc(/N=C3\\C(=O)N(CN4CCN(C)CC4)c4ccc(F)cc43)nc2N)cc(OC)c1OC", "strain or isolate": "IIIB", "method": "cytopathic effect / MTT", "value": ">106.7 µg/mL"}
{"structure": "CCCCCCCC/C=C\\CCCCC(CCC(=O)O)NC1c2ccc3cc4c5c6c(cc7ccc8cc9cc1c1c9c9c8c7c6c9c6c1c2c3c56)C4", "method": "p24", "value": "10 µM"}
{"structure": "CCN(CC)CN1C(=O)/C(=N\\c2ncc(Cc3cc(OC)c(OC)c(OC)c3)c(N)n2)c2cc(F)ccc21", "strain or isolate": "IIIB", "method": "cytopathic effect / MTT", "value": ">141 µg/mL"}
{"structure": "Nc1nccc2c1nnn2[C@@H]1O[C@H](CO)[C@@H](O)[C@H]1O", "method": "cytopathic effect", "value": ">398 µM"}
{"structure": "N#CC1=CC2C(c3ccccc3N2Cc2ccncc2)N(c2ccc([N+](=O)[O-])cc2)C1=O", "strain or isolate": "LAI", "method": "cytopathic effect / MTT", "value": "<1 µM"}
{"structure": "CCc1nc([N+](=O)[O-])c(N2CCN(C(=O)CCC(N)=O)CC2)n1Cc1ccccc1", "strain or isolate": "IIIB", "method": "syncytia", "value": ">78.9 µg/mL"}
{"structure": "CC(C)CN1c2ccccc2C2C1C=C(C#N)C(=O)N2c1ccc([N+](=O)[O-])cc1", "strain or isolate": "LAI", "method": "cytopathic effect / MTT", "value": "<1 µM"}
{"structure": "O=C(NCc1cccs1)c1ccc(C2=NN3C(C(=O)c4ccc(F)cc4)Oc4ccccc4C3C2)cc1", "strain or isolate": "LAI", "method": "GFP / reporter gene", "value": ">10 µM"}
{"structure": "CCN1C[C@H](C)N2C(=C(O)C3C(=O)N4Cc5ccc(F)cc5OCCCC(=O)N5CCN(CC5)C(=N4)C32)C1=O", "strain or isolate": "LAII(IIIB)", "value": "3.07 µM"}
{"structure": "COc1cc(Cc2cnc(/N=C3\\C(=O)N(CN4CCC(C)CC4)c4ccc(F)cc43)nc2N)cc(OC)c1OC", "strain or isolate": "IIIB", "method": "cytopathic effect / MTT", "value": ">69.6 µg/mL"}
{"structure": "C=Cn1cc(C(=O)O)c(=O)c2ccc(N3CCN(c4ccccn4)CC3)cc21", "strain or isolate": "IIIB", "method": "MTT", "value": "0.08 µM"}
{"structure": "NC(=O)OCc1ncc(Sc2cc(Cl)cc(Cl)c2)n1Cc1ccncc1", "strain or isolate": "IIIB", "method": "syncytia", "value": ">0.0014 µg/mL"}
{"structure": "Cc1nc2c(ccn2Cc2ccc(F)c(F)c2)c(-c2cc(F)c3c(c2C)CCCO3)c1[C@H](OC(C)(C)C)C(=O)O", "method": "luciferase", "value": "0.006 µM"}
{"structure": "Cc1cc(-c2nc(-c3ccc(N4C(=O)C=CC5C4c4ccccc4N5C)cc3)no2)no1", "strain or isolate": "LAI", "method": "cytopathic effect / MTT", "value": "1–32 µM"}
{"structure": "O=C(NCC1CCCCC1)c1ccc(C2=NN3C(C(=O)c4ccc(F)cc4)Oc4ccccc4C3C2)cc1", "strain or isolate": "LAI", "method": "GFP / reporter gene", "value": ">10 µM"}
{"structure": "CCc1nc([N+](=O)[O-])c(N2CCN(C(=O)CSCc3ccc(Cl)cc3)CC2)n1Cc1ccccc1", "strain or isolate": "IIIB", "method": "syncytia", "value": ">5.95 µg/mL"}
{"structure": "Nc1nccc2c1ncn2[C@H]1C[C@H](O)[C@@H](CO)O1", "method": "cytopathic effect", "value": ">145 µM"}
{"structure": "Nn1cc(C(=O)O)c(=O)c2cc(O)c(N3CCN(c4cccc(C(F)(F)F)c4)CC3)cc21", "strain or isolate": "IIIB", "method": "MTT", "value": ">20.96 µM"}
{"structure": "CCN1CCN2C(=C(O)C3C(=O)N4Cc5ccc(F)cc5OCCCCCN(C)C(=O)C(=N4)C32)C1=O", "strain or isolate": "LAII(IIIB)", "value": "7.2 µM"}
{"structure": "OC[C@H]1O[C@@H](n2nc3ccnc(Cl)c3n2)[C@H](O)[C@@H]1O", "method": "cytopathic effect", "value": ">398 µM"}
{"structure": "CCc1c(-c2coc(CC/C(C)=C/c3ccccc3)n2)oc(OC)c(C)c1=O", "strain or isolate": "IIIB", "value": "0.0066 µM"}
{"structure": "CCc1nc([N+](=O)[O-])c(N2CCN(C(C)=O)CC2)n1Cc1ccccc1", "strain or isolate": "IIIB", "method": "syncytia", "value": ">63.7 µg/mL"}

The last 5 rows once more:

structure	strain or isolate	method	value
Nn1cc(C(=O)O)c(=O)c2cc(O)c(N3CCN(c4cccc(C(F)(F)F)c4)CC3)cc21	IIIB	MTT	>20.96 µM
CCN1CCN2C(=C(O)C3C(=O)N4Cc5ccc(F)cc5OCCCCCN(C)C(=O)C(=N4)C32)C1=O	LAII(IIIB)	-	7.2 µM
OC[C@H]1O[C@@H](n2nc3ccnc(Cl)c3n2)[C@H](O)[C@@H]1O	-	cytopathic effect	>398 µM
CCc1c(-c2coc(CC/C(C)=C/c3ccccc3)n2)oc(OC)c(C)c1=O	IIIB	-	0.0066 µM
CCc1nc([N+](=O)[O-])c(N2CCN(C(C)=O)CC2)n1Cc1ccccc1	IIIB	syncytia	>63.7 µg/mL